In the assay the test system is intracellular Mycobacterium tuberculosis. As to conditions: Day 0 RLU 255, Control Day 7 1856.

Read-outs that look alike come from different tables or passages of the source.

`NNC(=O)c1ccncc1` [INH, isoniazid, reference compound]: the “Mean RLU Day 7” value (INH 0.125) worked out at 4 RLU. In the case of `CO[C@H]1[C@@H](O)[C@H](n2ccc(=O)[nH]c2=O)O[C@@H]1[C@@H](O[C@H]1OC(C(=O)N[C@H]2CCC[C@@H](C)NC2=O)=C[C@H](O)[C@@H]1O)C(N)=O` [SQ997], the “Mean RLU Day 7” value is, setting by setting: (unconjugated SQ997 8 μg/mL) 1080 RLU; (unconjugated SQ997 16 μg/mL) 410 RLU.

The values above are taken from patent publication US20090281054A1, “COMPOSITIONS AND METHODS COMPRISING CAPURAMYCIN ANALOGUES” (priority 2008, published 2009).
